From article PMC5515891 (Scientific Reports, 2017) come the findings set out here.

Amino acid sequences for entries named in this document (tags omitted). Residues count along the entry.
UniProt Q7DDI3, 20-272 limits assumed: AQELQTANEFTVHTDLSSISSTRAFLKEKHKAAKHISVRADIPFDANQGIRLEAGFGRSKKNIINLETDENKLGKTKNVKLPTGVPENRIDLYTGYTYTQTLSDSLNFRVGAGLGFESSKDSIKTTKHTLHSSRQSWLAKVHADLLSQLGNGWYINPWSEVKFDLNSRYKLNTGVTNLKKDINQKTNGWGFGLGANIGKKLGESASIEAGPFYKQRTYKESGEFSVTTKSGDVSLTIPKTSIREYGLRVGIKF

pKd: −log10 of the molar value.

The target of this experiment is Opc (Neisseria meningitidis, UniProt Q7DDI3). Description: isothermal titration calorimetry. The format is binding. The settings on record: Opc+ outer membrane preparation (4 mg/ml, PBS) in cell, 100 µM glycan in syringe; Opc- preparation and PBS controls subtracted.

The compound `CC(=O)N[C@H]1[C@H]([C@H](O)[C@H](O)CO)O[C@@](O[C@H]2[C@@H](O)[C@@H](CO)O[C@@H](O[C@H]3[C@H](O[C@@H]4O[C@@H](C)[C@@H](O)[C@@H](O)[C@@H]4O)[C@@H](NC(C)=O)C(O)O[C@@H]3CO)[C@@H]2O)(C(=O)O)C[C@@H]1O` (stereo partly shown) had a negative logarithm of the Kd (pKd) of 6.23.
